Legend:
Assay in all cases: Nitroreductase detection on Columbia agar, colonies read under UV
[1] = test system: Listeria monocytogenes NCTC 11994; type: cell-based; details: Table 3; 100 mg/l in Columbia agar, 24 h 37° C., UV 360-365 nm
Protocol: (§1) A mass of 40 mg of each substrate was dissolved in 4 ml of dimethylformamide (DMF). This solution was entirely taken up in 400 ml of Columbia agar autoclaved beforehand and kept molten at 50° C. The final concentration for each substrate was 100 mg/l.
(§2) Each of the media was distributed into Petri dishes 90 mm in diameter, in a proportion of 20 ml per dish.
(§3) 18 microorganism strains derived from collections and belonging to various species of bacteria and of yeasts were inoculated onto these media by semi-quantitative isolation of 10 μl of a suspension at 0.5 McFarland diluted to 1/20. The media were incubated for 24 hours at 37° C., then the colonies formed were examined visually under UV illumination at 360-365 nm.

[2] = test system: Staphylococcus aureus NCTC 6571; type: cell-based; details: 100 mg/l in Columbia agar, 24 h 37° C., UV 360-365 nm; for F: fluorescence (color), Staphylococcus aureus NCTC 6571: Table 3
Protocol: as §1, §2, §3

[3] = test system: Burkholderia cepacia 1222; type: cell-based; details: Table 3; 100 mg/l in Columbia agar, 24 h 37° C., UV 360-365 nm
Protocol: as §1, §2, §3

[4] = test system: Yersinia enterocolitica NCTC 11176; type: cell-based; details: 100 mg/l in Columbia agar, 24 h 37° C., UV 360-365 nm
Protocol: as §1, §2, §3

[5] = test system: Providencia rettgeri NCTC 7475; type: cell-based; details: 100 mg/l in Columbia agar, 24 h 37° C., UV 360-365 nm; for F: fluorescence (color), Providencia rettgeri NCTC 7475: Table 3; for Color of the fluorescence, Providencia rettgeri NCTC 7475: Table 4
Protocol: as §1, §2, §3

[6] = test system: Morganella morganii 462403 (wild); type: cell-based; details: 100 mg/l in Columbia agar, 24 h 37° C., UV 360-365 nm; for F: fluorescence (color), Morganella morganii 462403 (wild): Table 3; for Color of the fluorescence, Morganella morganii 462403: Table 2; for Color of the fluorescence, Morganella morganii 462403 (wild): Table 4
Protocol: as §1, §2, §3

[7] = test system: Escherichia coli NCTC 10418; type: cell-based; details: 100 mg/l in Columbia agar, 24 h 37° C., UV 360-365 nm; for F: fluorescence (color), Escherichia coli NCTC 10418: Table 3
Protocol: as §1, §2, §3

[8] = test system: Salmonella typhimurium NCTC 74; type: cell-based; details: 100 mg/l in Columbia agar, 24 h 37° C., UV 360-365 nm; for F: fluorescence (color), Salmonella typhimurium NCTC 74: Table 3
Protocol: as §1, §2, §3

[9] = test system: Citrobacter freundii 46262 (wild); type: cell-based; details: 100 mg/l in Columbia agar, 24 h 37° C., UV 360-365 nm; for F: fluorescence (color), Citrobacter freundii 46262 (wild): Table 3; for Color of the fluorescence, Citrobacter freundii 46262 (wild): Table 4
Protocol: as §1, §2, §3

MRSA NCTC 11939 = type: cell-based, Staphylococcus aureus; details: 100 mg/l in Columbia agar, 24 h 37° C., UV 360-365 nm; for F: fluorescence (color), MRSA NCTC 11939: Table 3; for Color of the fluorescence, Staphylococcus aureus NCTC 11939: Table 2; for Color of the fluorescence, MRSA NCTC 11939: Table 4
Protocol: as §1, §2, §3

[10] = test system: Acinetobacter baumanii ATCC 19606; type: cell-based; details: 100 mg/l in Columbia agar, 24 h 37° C., UV 360-365 nm
Protocol: as §1, §2, §3

[11] = test system: Enterobacter cloacae NCTC 11936; type: cell-based; details: 100 mg/l in Columbia agar, 24 h 37° C., UV 360-365 nm
Protocol: as §1, §2, §3

[12] = test system: Pseudomonas aeruginosa NCTC 10662; type: cell-based; details: Table 4; 100 mg/l in Columbia agar, 24 h 37° C., UV 360-365 nm
Protocol: as §1, §2, §3

O=[N+]([O-])c1ccccc1-c1nc2ccccc2o1 [Substrate 1]
F: fluorescence (color), Listeria monocyto genes NCTC 11994 [1]: violet
F: fluorescence (color), Staphylococcus aureus NCTC 6571 [2]: violet
F: fluorescence (color), Burkholderia cepacia 1222 [3]: violet
F: fluorescence (color), Yersinia enterocolitica NCTC 11176 ([4]; Table 3): violet
F: fluorescence (color), Providencia rettgeri NCTC 7475 [5]: violet
F: fluorescence (color), Morganella morganii 462403 (wild) [6]: violet
F: fluorescence (color), Escherichia coli NCTC 10418 [7]: violet
F: fluorescence (color), Salmonella typhimurium NCTC 74 [8]: violet
F: fluorescence (color), Citrobacter freundii 46262 (wild) [9]: violet
F: fluorescence (color), MRSA NCTC 11939 (MRSA NCTC 11939): violet

O=[N+]([O-])c1ccccc1-c1nc2cc(Cl)ccc2o1 [Substrate 2]
Color of the fluorescence, Staphylococcus aureus NCTC 6571 ([2]; Table 2): Blue
Color of the fluorescence, Acinetobacter baumanii ATCC 19606 ([10]; Table 2): Blue
Color of the fluorescence, Enterobacter cloacae NCTC 11936 ([11]; Table 2): Blue
Color of the fluorescence, Yersinia enterocolitica NCTC 11176 ([4]; Table 2): Blue
Color of the fluorescence, Morganella morganii 462403 [6]: Blue
Color of the fluorescence, Escherichia coli NCTC 10418 ([7]; Table 2): Blue
Color of the fluorescence, Staphylococcus aureus NCTC 11939 (MRSA NCTC 11939): Blue

O=[N+]([O-])c1cc2c(cc1-c1nc3ccccc3o1)OCO2 [Substrate 5]
F: fluorescence (color), Listeria monocyto genes NCTC 11994 [1]: violet
F: fluorescence (color), Staphylococcus aureus NCTC 6571 [2]: violet
F: fluorescence (color), Burkholderia cepacia 1222 [3]: violet
F: fluorescence (color), Providencia rettgeri NCTC 7475 [5]: violet
F: fluorescence (color), Morganella morganii 462403 (wild) [6]: violet
F: fluorescence (color), Escherichia coli NCTC 10418 [7]: violet
F: fluorescence (color), Salmonella typhimurium NCTC 74 [8]: violet
F: fluorescence (color), Citrobacter freundii 46262 (wild) [9]: violet
F: fluorescence (color), MRSA NCTC 11939 (MRSA NCTC 11939): violet

COc1cc(-c2nc3ccccc3o2)c([N+](=O)[O-])cc1OC [Substrate 6]
Color of the fluorescence, Staphylococcus aureus NCTC 6571 ([2]; Table 2): Blue
Color of the fluorescence, Enterobacter cloacae NCTC 11936 ([11]; Table 2): Blue
Color of the fluorescence, Morganella morganii 462403 [6]: Blue
Color of the fluorescence, Escherichia coli NCTC 10418 ([7]; Table 2): Blue
Color of the fluorescence, Staphylococcus aureus NCTC 11939 (MRSA NCTC 11939): Blue

O=[N+]([O-])c1ccc(F)cc1-c1nc2ccccc2o1 [Substrate 7]
Color of the fluorescence, Staphylococcus aureus NCTC 6571 ([2]; Table 2): Blue
Color of the fluorescence, Acinetobacter baumanii ATCC 19606 ([10]; Table 2): Blue
Color of the fluorescence, Enterobacter cloacae NCTC 11936 ([11]; Table 2): Blue
Color of the fluorescence, Morganella morganii 462403 [6]: Blue
Color of the fluorescence, Escherichia coli NCTC 10418 ([7]; Table 2): Blue
Color of the fluorescence, Salmonella typhimurium NCTC 74 ([8]; Table 2): Blue
Color of the fluorescence, Staphylococcus aureus NCTC 11939 (MRSA NCTC 11939): Blue

O=[N+]([O-])c1ccccc1-c1nc2ccccc2n1CCc1ccccc1 [Substrate 12]
Color of the fluorescence, Morganella morganii 462403 [6]: Blue

O=[N+]([O-])c1ccc(F)cc1-c1nc2ccccc2s1 [Substrate 15]
Color of the fluorescence, Staphylococcus aureus NCTC 6571 ([2]; Table 2): Blue
Color of the fluorescence, Staphylococcus aureus NCTC 6571 ([2]; Table 4): turquoise
Color of the fluorescence, Acinetobacter baumanii ATCC 19606 ([10]; Table 2): Blue
Color of the fluorescence, Acinetobacter baumanii ATCC 19606 ([10]; Table 4): turquoise
Color of the fluorescence, Enterobacter cloacae NCTC 11936 ([11]; Table 2): Blue
Color of the fluorescence, Enterobacter cloacae NCTC 11936 ([11]; Table 4): turquoise
Color of the fluorescence, Providencia rettgeri NCTC 7475 [5]: turquoise
Color of the fluorescence, Morganella morganii 462403 [6]: Blue
Color of the fluorescence, Morganella morganii 462403 (wild) [6]: turquoise
Color of the fluorescence, Pseudomonas aeruginosa NCTC 10662 [12]: turquoise
Color of the fluorescence, Escherichia coli NCTC 10418 ([7]; Table 2): Blue
Color of the fluorescence, Escherichia coli NCTC 10418 ([7]; Table 4): turquoise
Color of the fluorescence, Salmonella typhimurium NCTC 74 ([8]; Table 2): Blue
Color of the fluorescence, Salmonella typhimurium NCTC 74 ([8]; Table 4): turquoise
Color of the fluorescence, Citrobacter freundii 46262 (wild) [9]: turquoise
Color of the fluorescence, Staphylococcus aureus NCTC 11939 (MRSA NCTC 11939): Blue
Color of the fluorescence, MRSA NCTC 11939 (MRSA NCTC 11939): turquoise

CN1CCN(c2ccc([N+](=O)[O-])c(-c3nc4ccccc4s3)c2)CC1 [Substrate 23]
Color of the fluorescence, Staphylococcus aureus NCTC 6571 ([2]; Table 4): yellow
Color of the fluorescence, Enterobacter cloacae NCTC 11936 ([11]; Table 4): yellow
Color of the fluorescence, Providencia rettgeri NCTC 7475 [5]: yellow
Color of the fluorescence, Morganella morganii 462403 (wild) [6]: yellow
Color of the fluorescence, Pseudomonas aeruginosa NCTC 10662 [12]: yellow
Color of the fluorescence, Salmonella typhimurium NCTC 74 ([8]; Table 4): yellow
Color of the fluorescence, Citrobacter freundii 46262 (wild) [9]: yellow
Color of the fluorescence, MRSA NCTC 11939 (MRSA NCTC 11939): yellow

— patent publication US8211662B2, “Nitroreductase enzymatic substrates” (Biomerieux, priority 2007, dated 2012)
